Measured values from several laboratories, pooled; numbers as filed in NIAID ChemDB.

Shared fields: growth or infection tests; organism: HIV-1; cell line: MT-4; measure: EC95

An empty or dashed field is not shown. Rows are shuffled and stem from different studies. ECn: concentration that inhibits the pathogen or its effect by n%.

{"structure": "Cn1c(C2COCCN2)nc(C(=O)NCc2ccc(F)cc2)c(O)c1=O", "method": "p24 / ELISA", "strain or isolate": "IIIB", "setting": "10% FBS", "value": ">1 µM"}
{"structure": "CC(C)CN(C[C@@H](O)[C@H](Cc1ccccc1)NC(=O)[C@H](CC(N)=O)NC(=O)c1ccc2ccccc2n1)C(=O)NC(C)(C)C", "method": "p24", "strain or isolate": "NL4-3", "value": "0.2 µM"}
{"structure": "CN(C(=O)Cn1cccn1)C1CCCn2c1nc(C(=O)NCc1ccc(F)cc1)c(O)c2=O", "method": "p24 / ELISA", "strain or isolate": "IIIB", "setting": "10% FBS", "value": ">1 µM"}
{"structure": "CN1CCOCC1c1nc(C(=O)NCc2ccc(F)c(Cl)c2)c(O)c(=O)n1C", "method": "p24 / ELISA", "strain or isolate": "IIIB", "setting": "50% human serum", "value": "0.031 µM"}
{"structure": "CC(=O)N(C)C1CCn2c1nc(C(=O)NCc1ccc(F)cc1)c(O)c2=O", "method": "p24 / ELISA", "strain or isolate": "IIIB", "setting": "50% human serum", "value": ">1 µM"}
{"structure": "Cc1cc(C)c(-n2nnnc2SCC(=O)Nc2ccccc2I)c(C)c1", "method": "p24", "value": "<10 µM"}
{"structure": "O=C1N(Cc2ccc(CO)cc2)[C@H](Cc2ccccc2)[C@H](O)[C@@H](O)[C@@H](Cc2ccccc2)N1Cc1ccc(CO)cc1", "method": "p24", "strain or isolate": "NL4-3", "mutations": "PR-L10R M46I L63P 184V", "value": "3 µM"}
{"structure": "O=C(CSc1nnnn1-c1c(Cl)cccc1Cl)Nc1ccccc1Cl", "method": "p24", "value": "<10 µM"}
{"structure": "CC(C)=CCN1c2cc(Cl)cc3[nH]c(=S)n(c23)C[C@@H]1C", "mutations": "RT-K70R K101E", "value": "1.5 µM"}
{"structure": "CC(=O)N[C@H]1C[C@@H](c2nc(C(=O)NCc3ccc(F)cc3)c(O)c(=O)n2C)N(C)C1", "method": "p24 / ELISA", "strain or isolate": "IIIB", "setting": "10% FBS", "value": ">1 µM"}
{"structure": "c1ccc(CSc2nnnn2-c2cccc3ccccc23)nc1", "method": "p24", "value": "<10 µM"}
{"structure": "CN1C[C@H](OCc2ccccc2)C[C@H]1c1nc(C(=O)NCc2ccc(F)cc2)c(O)c(=O)n1C", "method": "p24 / ELISA", "strain or isolate": "IIIB", "setting": "10% FBS", "value": "<0.08 µM"}
{"structure": "Cc1ccc(-n2nnnc2SCC(=O)Nc2ccccc2[N+](=O)[O-])cc1", "method": "p24", "value": "<10 µM"}
{"structure": "CN1CCC[C@H]1c1nc(C(=O)NCc2ccc(F)cc2)c(O)c(=O)n1C", "method": "p24 / ELISA", "strain or isolate": "IIIB", "setting": "10% FBS", "value": ">1 µM"}
{"structure": "Cc1cc(C)c(-n2nnnc2SCC(=O)Nc2ccc(C)cc2Br)c(C)c1", "method": "p24", "value": "<10 µM"}

2 of the rows above, restated:

| structure | method | strain or isolate | setting | mutations | value |
|---|---|---|---|---|---|
| Cc1cc(C)c(-n2nnnc2SCC(=O)Nc2ccccc2I)c(C)c1 | p24 |  |  |  | <10 µM |
| CN1CCOCC1c1nc(C(=O)NCc2ccc(F)c(Cl)c2)c(O)c(=O)n1C | p24 / ELISA | IIIB | 50% human serum |  | 0.031 µM |